Anti-infective test results gathered from many reports (values: NIAID ChemDB through PubChem).

Shared fields: growth or infection tests; agent: Mycobacterium tuberculosis

ECn: concentration that inhibits the pathogen or its effect by n%. a–b is a range or a potency band. For "inactive" no cut-off is given. Conditions beyond the fields shown may differ between rows. MIC bound comes from a single tested concentration. Percent inhibition refers to the dose given; in toxicity tests it is the harm to the cells. An empty or dashed field is not shown. A number after MIC or MFC names an inhibition level or a share of isolates.

compound,dose,setting,strain or isolate,read-out,method,result
Cc1cc(C)c2c(OCCCCN3CCN(c4ncccn4)CC3)nsc2n1,12.5 µg/mL,,H37Rv,inhibition,BACTEC,0%
Cn1cnc([N+](=O)[O-])c1Sc1nc2cc(Cl)c(F)cc2[nH]1,,,H37Rv,MIC bound,BACTEC,>6.25 µg/mL
NNC(=O)c1cnc(C2CCCC2)[nH]1,,,H37Rv,MIC,,>6.25 µg/mL
Cc1ccc(-c2c(O)cc(C)[nH]c2=O)cc1,,,H37Ra,MIC,,>256 µg/mL
Cn1c(SCc2ccc(Cl)cc2Cl)nnc1-c1ccc(N=Cc2ccc(F)cc2)cc1,6.25 µg/mL,,H37Rv,inhibition,,<50%
Cc1cccc(NC(=O)c2cccc3nc4ccccc4nc23)c1C,,,H37Rv 27294,MIC,,0.39 µg/mL
Cc1ccc(-n2c(SCc3ccccc3)nnc2-c2ccc(N=Cc3ccc(O)cc3)cc2)cc1,,,H37Rv,EC50,,>6.25 µg/mL
COc1cccc(CS/C(N)=N/N=C/c2cc(Cl)ccc2O)c1,,21 d,H37Rv,MIC,broth dilution,32 µM
NCCc1c(-c2cccnc2)[nH]c2ccccc12,,,H37Rv,MIC bound,BACTEC,>6.25 µg/mL
Clc1ccc(CSc2nnc(-c3ccc(N=Cc4c(Cl)cccc4Cl)cc3)n2-c2ccccc2)c(Cl)c1,6.25 µg/mL,,H37Rv,inhibition,,50–59%
O=C(Nc1ccccc1Cl)c1cccc2nc3ccccc3nc12,,,H37Rv 27294,MIC,,0.39 µg/mL
N/C(=N\N=C\c1ccccc1)SCc1ccccc1,,14 d,H37Rv,MIC,broth dilution,62.5 µM
Clc1ccc(-c2nnc(/N=C\c3ccco3)s2)cc1,,,H37Rv,MIC,resazurin,3.125 µg/mL
Fc1ccc(C=Nc2ccc(-c3nnc(SCc4ccc(Cl)cc4Cl)n3-c3ccccc3)cc2)cc1,,,H37Rv,EC50,,>6.25 µg/mL
COc1nc2ccc(Br)cc2cc1[C@@H](c1ccccc1)[C@@](O)(CCN(C)C)c1cccc2ccccc12,,,clinical isolate MAL020151,MIC90,resazurin,0.03125 µg/mL
CN(C)c1ccc(/C=C2\N=C(c3ccc([N+](=O)[O-])cc3)OC2=O)cc1,12.5 µg/mL,,H37Rv,inhibition,BACTEC,6%
NNC(=O)c1ccncc1,,,,MIC,visual reading,0.05 µg/mL
Cn1c(SCc2ccc(Cl)cc2Cl)nnc1-c1ccc(N=Cc2ccc(O)cc2)cc1,,,H37Rv,EC50,,>6.25 µg/mL
Cc1ccc(S(=O)(=O)ONNc2nccc3ccccc23)cc1,12.5 µg/mL,,H37Rv,inhibition,BACTEC,-8%
CN[C@@H]1[C@H](O[C@H]2[C@H](O[C@H]3[C@H](O)[C@@H](O)[C@H](N=C(N)N)[C@@H](O)[C@@H]3N=C(N)N)O[C@@H](C)[C@]2(O)C=O)O[C@@H](CO)[C@H](O)[C@H]1O,,,H37Rv,MIC,,≤0.5 µg/mL
CN(CC1CCCCC1)C1CCN(c2nc(=O)c3cc(C(F)(F)F)cc([N+](=O)[O-])c3s2)CC1,,,16802 clinical isolate,MIC90,resazurin,0.016 µg/mL
O=C(O)c1nc(C2CCCCC2)[nH]c1C1CCCCC1,,,H37Rv,MIC,,>6.25 µg/mL
O=S1(=O)Oc2c(Cl)cc(Cl)cc2S(=O)(=O)Oc2c(Cl)cc(Cl)cc21,,,H37Rv,MIC,BACTEC,≥12.5 µg/mL
Cc1cc(O)c(-c2cccc(C(F)(F)F)c2)c(=O)[nH]1,,,H37Ra,MIC,,≥256 µg/mL
Cc1ccc(CS/C(N)=N/N=C/c2ccccc2)cc1,,21 d,H37Rv,MIC,broth dilution,62.5 µM
CCn1c(C)cc(O)c(-c2ccccc2)c1=O,,,H37Ra,MIC,,64 µg/mL
CC(C)[C@H]1CC[C@H]2[C@@H]3C=C[C@](C)(O)CC[C@]3(C)CC[C@]12C(=O)O,,,H37Rv,MIC,visual reading / absorbance,312 µM
CN1CCN(c2ccc([N+](=O)[O-])c3no[n+]([O-])c23)CC1,6.25 µg/mL,,H37Rv,inhibition,resazurin,37%
N/C(COc1ccc(Cl)cc1)=N/NC(=O)c1ccncc1,,,H37Rv(ATCC25584),MIC,,6.25 µg/mL
C=CCNC(=S)NNC(=O)c1ccncc1,6.25 µg/mL,,H37Rv,inhibition,resazurin,97%
CC(C)(C)c1ccc(Cn2cnc([N+](=O)[O-])n2)cc1,0.488 µM,,H37Rv,inhibition,turbidity,90%
NNC(=O)c1ccncc1,,,H37Rv,MIC,resazurin,0.19 µM
O=c1[nH]c2cc(C(F)(F)F)ccc2nc1CBr,12.5 µg/mL,,,inhibition,,inactive
O=c1nc(N2CCC(=NOCc3ccccc3)CC2)sc2c([N+](=O)[O-])cc(C(F)(F)F)cc12,,,H37Rv,MIC90,resazurin,<0.016 µg/mL
COc1ccccc1N1CCN(CCCCOc2nsc3nc(C)cc(C)c23)CC1,12.5 µg/mL,,H37Rv,inhibition,BACTEC,10%
CCN(CC)Cc1cc(Nc2cc(C)nc3ccc(N(C)C)cc23)ccc1O.Cl.Cl.Cl,,,H37Rv,MIC bound,BACTEC,>12.5 µg/mL
CCCCCCCCCCCCCCCCCCCCCCCCCCCCCCCC,,,H37Rv (ATCC 27294),MIC90,resazurin,62.5 µg/mL
NCC[C@H](O)C(=O)N[C@@H]1C[C@H](N)[C@@H](O[C@H]2O[C@H](CN)[C@@H](O)[C@H](O)[C@H]2O)[C@H](O)[C@H]1O[C@H]1O[C@H](CO)[C@@H](O)[C@H](N)[C@H]1O,,,H37Rv,MIC,,1 µg/mL
Oc1ccc(NC(=S)S)cc1,12.5 µg/mL,,H37Rv,inhibition,BACTEC,39%
CC(C)(C)c1nc(C(=O)O)c(C(C)(C)C)[nH]1,6.25 µg/mL,,H37Rv,inhibition,,0%
COc1c(N2CC3CCCNC3C2)c(F)cc2c(=O)c(C(=O)O)cn(C3CC3)c12,,,,MIC,visual reading,0.78 µg/mL
N/C(=N\N=C\c1cc(Br)ccc1O)SCc1cccc(Cl)c1,,14 d,H37Rv,MIC,broth dilution,32 µM
CC1=CC[C@]2(C)CC[C@]3(C=O)[C@@H](C(C)C)CC[C@H]3[C@@H]2C=C1,,,H37Rv,MBC,visual reading / absorbance,10.9 µM
Cc1cc(C)c2c(=O)n(CCCN3CCN(c4cccc(Cl)c4)CC3)sc2n1,12.5 µg/mL,,H37Rv,inhibition,BACTEC,100%
Cc1cc(C)cc(NC(=O)c2cccc3nc4ccccc4nc23)c1,,,H37Rv 27294,MIC,,0.39 µg/mL
CC1(C)C(=O)N(Cl)C(=O)N1Cl,,,H37Rv,MIC bound,BACTEC,>12.5 µg/mL
Cc1cc(C)c2c(=O)n(CC(O)CN3CCN(c4ncccn4)CC3)sc2n1,,,H37Rv,EC50,BACTEC,>12.5 µg/mL
CCON=C1CN(c2nc(=O)c3cc(C(F)(F)F)cc([N+](=O)[O-])c3s2)C1,,,16892 clinical isolate,MIC90,resazurin,0.016 µg/mL
c1ccc(CNc2nnc3nc(-c4ccccc4)c(-c4ccccc4)nn23)cc1,12.5 µg/mL,,H37Rv,inhibition,BACTEC,41%
O=C1c2ccccc2C(=O)N1Cn1c(=O)c(=O)[nH]c2ccccc21,,,H37Rv,MIC,resazurin,10.6 µg/mL
O=c1[nH]c2cc(C(F)(F)F)ccc2nc1C(F)(F)F,12.5 µg/mL,,,inhibition,,inactive
C=CCn1c(SCc2ccc(Cl)cc2Cl)nnc1-c1ccc(N=Cc2ccc(F)cc2)cc1,,,H37Rv,EC50,,>6.25 µg/mL
COc1ccc(OC/C(N=Cc2ccncc2)=N\NC(=O)c2ccncc2)cc1,,,H37Rv(ATCC25584),MIC,,>100 µg/mL
CC(C)[C@H]1CC[C@H]2[C@@H]3C=C[C@](C)(O)CC[C@]3(C)CC[C@]12CO,,,H37Rv,MBC,visual reading / absorbance,20.4 µM
Cc1cccc(OC/C(N)=N\NC(=O)c2ccncc2)c1,,,INH-r,MIC,,50 µg/mL
CON=C1CCN(c2nc(=O)c3cc(C(F)(F)F)cc([N+](=O)[O-])c3s2)CC1,,,16802 clinical isolate,MIC90,resazurin,0.016 µg/mL
Cc1ccc(-n2c(SCc3ccc(Cl)cc3Cl)nnc2-c2ccc(N=Cc3ccc(Cl)cc3)cc2)cc1,,,H37Rv,EC50,,>6.25 µg/mL
O=C(N/N=C(\COc1ccccc1)N=Cc1cccnc1)c1ccncc1,,,H37Rv(ATCC25584),MIC,,25 µg/mL
Cc1ccnc(Nc2nnc(Nc3cc(C)ccn3)c3ccccc23)c1,,,H37Rv,MIC,BACTEC,≥12.5 µg/mL
O=C(Nc1ccc(F)cc1)c1cccc2nc3ccccc3nc12,,,H37Rv 27294,MIC,,0.19 µg/mL
O=C(O)c1cnc(C2CCCC2)[nH]1,6.25 µg/mL,,H37Rv,inhibition,,0%
Cc1cc(C)c2c(=O)n(CC(O)CN3CCN(c4ccccc4)CC3)sc2n1,12.5 µg/mL,,H37Rv,inhibition,BACTEC,5%
N/C(=N\N=C\c1cc(Cl)cc(Cl)c1O)SCc1ccc(Br)cc1,,21 d,H37Rv,MIC,broth dilution,32 µM
CC1=C(C)C(=O)O[C@H]([C@](C)(O)[C@]2(O)CC[C@@]3(O)[C@@H]4C[C@H]5O[C@]56CC=CC(=O)[C@]6(C)[C@H]4CC[C@]23C)C1,,,H37Rv,MIC,BACTEC,≥12.5 µg/mL
CCCCCCCNC(=O)CCc1cnc(C2C3CC4CC(C3)CC2C4)[nH]1,6.25 µg/mL,,H37Rv,inhibition,,8%
CC1=NNC(=O)C1Cn1c(=O)c(=O)[nH]c2ccccc21,,,H37Rv,MIC,resazurin,8.012 µg/mL
O=C(Nc1cccc(Br)c1)c1cccc2nc3ccccc3nc12,,,H37Rv 27294,MIC,,0.19 µg/mL
COc1ccccc1N1CCN(CCCCn2sc3nc(C)cc(C)c3c2=O)CC1,,,H37Rv,EC50,BACTEC,<12.5 µg/mL
CC1=CC[C@]2(C)CC[C@]3(C(=O)O)[C@@H](C(C)C)CC[C@H]3[C@@H]2C=C1,,,H37Rv,MBC,visual reading / absorbance,165.3 µM
C[N+](C)(C)CC(=O)N/N=C(\C(=O)Nc1ccc(Br)cc1)C1C(=O)NC(=O)NC1=O,,,H37Rv,MIC bound,BACTEC,>12.5 µg/mL
N[C@@H]1CONC1=O,,,Isoniazid-resistant,MIC,,<10 µg/mL
O=C(O)CCc1cnc(C2C3CC4CC(C3)CC2C4)[nH]1,6.25 µg/mL,,H37Rv,inhibition,,2%
CCOc1ccc2nc(NC(=O)c3c/c(=N\NC(=O)C[N+](C)(C)C)c4ccc(O)cc4o3)sc2c1.[Cl-],12.5 µg/mL,,H37Rv,inhibition,BACTEC,93%
O=c1[nH]c2ccccc2n(Cn2cnc3ccccc32)c1=O,,,H37Rv,MIC,resazurin,10.2 µg/mL
O=c1[nH]c2cc([N+](=O)[O-])ccc2nc1CBr,12.5 µg/mL,,,inhibition,,15%
Cn1nc(C(=O)NN)c(=O)[nH]c1=O,12.5 µg/mL,,H37Rv,inhibition,BACTEC,1%
N/C(=N\N=C\c1cc(Br)ccc1O)SCc1ccc(F)cc1,,21 d,H37Rv,MIC,broth dilution,16 µM
NC1=NC(=O)N2CC12,,,H37Rv,MIC bound,BACTEC,>12.5 µg/mL
COc1ccc(OC/C(N)=N\NC(=O)c2ccncc2)cc1,,,INH-r,MIC,,25 µg/mL
CC(C)NC(=O)OCCN=C1c2ccccc2CCc2ccccc21,12.5 µg/mL,,H37Rv,inhibition,BACTEC,0%
N/C(=N\N=C\c1ccccc1O)SCc1cccc(Cl)c1,,21 d,H37Rv,MIC,broth dilution,32 µM
O=C(O)CC1OCC=C2CN3CCC45C6=CC(=O)C(=O)C([N+](=O)[O-])=C6NC4C1C2CC35,,,H37Rv,MIC bound,BACTEC,>12.5 µg/mL
Cc1cc(C)c2c(=O)n(CC(O)CN3CCN(c4cccc(C(F)(F)F)c4)CC3)sc2n1,12.5 µg/mL,,H37Rv,inhibition,BACTEC,100%
O=C(O)CCc1cnc(C2CCCCC2)[nH]1,,,H37Rv,MIC,,>6.25 µg/mL
Cc1coc(C)c1C(=S)Nc1ccc(Cl)c(C(=O)OC(C)C)c1,12.5 µg/mL,,H37Rv,inhibition,BACTEC,60%
Cc1cc(O)c(-c2ccc(Cl)cc2Cl)c(=O)[nH]1,,,H37Ra,MIC,,>256 µg/mL

5 of the rows above, restated:

compound | dose | setting | strain or isolate | read-out | method | result
Cc1cc(C)c2c(=O)n(CC(O)CN3CCN(c4ncccn4)CC3)sc2n1 |  |  | H37Rv | EC50 | BACTEC | >12.5 µg/mL
Fc1ccc(C=Nc2ccc(-c3nnc(SCc4ccc(Cl)cc4Cl)n3-c3ccccc3)cc2)cc1 |  |  | H37Rv | EC50 |  | >6.25 µg/mL
N/C(COc1ccc(Cl)cc1)=N/NC(=O)c1ccncc1 |  |  | H37Rv(ATCC25584) | MIC |  | 6.25 µg/mL
NNC(=O)c1ccncc1 |  |  |  | MIC | visual reading | 0.05 µg/mL
N/C(=N\N=C\c1cc(Cl)cc(Cl)c1O)SCc1ccc(Br)cc1 |  | 21 d | H37Rv | MIC | broth dilution | 32 µM